The entries are a selection whose mix differs from that of the whole data set. Results with a measured potency or affinity are listed apart. The source made the active and inactive calls.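 Rule for the calls: active = primary inhibition above the hit cutoff, then over 50% inhibition at one or more dose response concentrations (cut at about 23% in these data, passing the limit was not always enough); inconclusive = conflicting primary data, or primary hits not chosen for dose response; inactive = low primary inhibition, or under 50% at every dose.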

Chains of the proteins cited; added tags and fusions are not shown.
UniProt O96935, whole entry: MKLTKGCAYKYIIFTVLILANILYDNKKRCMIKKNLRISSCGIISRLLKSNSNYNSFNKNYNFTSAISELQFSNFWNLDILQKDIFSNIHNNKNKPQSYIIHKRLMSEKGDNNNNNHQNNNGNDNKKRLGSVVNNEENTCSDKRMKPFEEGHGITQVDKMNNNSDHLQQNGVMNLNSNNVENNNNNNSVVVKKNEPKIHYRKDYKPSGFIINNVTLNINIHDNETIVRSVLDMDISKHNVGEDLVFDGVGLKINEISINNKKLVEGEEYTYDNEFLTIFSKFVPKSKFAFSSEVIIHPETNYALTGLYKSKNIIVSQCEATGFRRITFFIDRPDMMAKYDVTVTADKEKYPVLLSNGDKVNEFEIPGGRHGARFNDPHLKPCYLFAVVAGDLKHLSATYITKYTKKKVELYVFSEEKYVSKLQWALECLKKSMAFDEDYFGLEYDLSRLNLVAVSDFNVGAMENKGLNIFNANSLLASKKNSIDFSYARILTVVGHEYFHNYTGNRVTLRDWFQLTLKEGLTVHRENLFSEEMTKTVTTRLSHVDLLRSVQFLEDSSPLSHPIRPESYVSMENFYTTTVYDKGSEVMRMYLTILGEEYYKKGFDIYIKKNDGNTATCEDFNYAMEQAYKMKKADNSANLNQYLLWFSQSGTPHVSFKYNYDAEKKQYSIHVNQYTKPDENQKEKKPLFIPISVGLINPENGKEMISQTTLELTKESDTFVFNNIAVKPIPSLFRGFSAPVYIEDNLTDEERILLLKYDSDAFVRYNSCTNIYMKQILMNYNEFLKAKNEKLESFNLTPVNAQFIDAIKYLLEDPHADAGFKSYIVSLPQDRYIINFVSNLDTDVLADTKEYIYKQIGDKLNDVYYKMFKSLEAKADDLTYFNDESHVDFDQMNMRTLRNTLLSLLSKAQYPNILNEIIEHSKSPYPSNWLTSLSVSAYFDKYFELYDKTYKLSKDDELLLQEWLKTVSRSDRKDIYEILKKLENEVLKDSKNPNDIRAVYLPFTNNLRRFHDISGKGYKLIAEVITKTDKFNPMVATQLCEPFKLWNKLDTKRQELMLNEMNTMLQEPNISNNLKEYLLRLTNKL

The target of the experiment is Aminopeptidase N (Plasmodium falciparum (isolate 3D7)) (UniProt O96935). Nature of the experiment: P. falciparum M1AAP inhibitors, biochemical, fluorogenic H-Leu-NHMec substrate, 1536-well (AID 1445).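 Note: plate controls were DMSO full reaction for no effect and no enzyme background for full effect.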 The following applies: recombinant M1AAP, H-Leu-NHMec fluorogenic kinetic assay; at 30 µM; hits give high values.
What is called inhibition is the drop in the measured response relative to a control, in per cent. Take `O=C(NCC1(N2CCCCC2)CCCCC1)c1cccc([N+](=O)[O-])c1`: the inhibition is inactive: 5.54%.

On to `N#CC1(Nc2ccccc2)CCN(CCc2ccccc2)CC1`, for which the inhibition was inactive: 3.18%.

Consider `COc1ccc(NC2CCN(C(=O)OC(C)(C)C)CC2)cc1`, for which the inhibition is inactive: 7.68%.

For `CN1CCN(CCOC(=O)C(O)(c2ccccc2)c2ccccc2)CC1`, the inhibition is inactive: 5.38%.

Consider `O=C(NCC1(N2CCOCC2)CCCCC1)c1cc(=O)[nH]c2ccccc12`, for which the inhibition was inactive: 4.61%.

Take `COc1ccc(CN(CCCl)CCCl)cc1Cl`: the inhibition was inactive: 6.92%.

As to `CN(C)c1cccc(C(=O)NCC2(N3CCCCC3)CCCCC2)c1`, the inhibition was inactive: 2.08%.

With `CC(C)c1ccc(NC2CCN(C(=O)OC(C)(C)C)CC2)cc1`, the inhibition is inactive: 0.37%.

For `COc1ccc(C(=O)NCC2(N3CCCCC3)CCCCC2)c(OC)c1OC`, the inhibition is inactive: 5.12%.

With `O=C(NCC1(N2CCOCC2)CCCCC1)c1cc2ccccc2o1`, the inhibition was inactive: -2.4%.

Turning to `CCOC(=O)N1CCC(Nc2ccc(OC)cc2)CC1`, the inhibition is inactive: 2.03%.

Consider `N#CC1(Nc2ccccc2)CCN(Cc2ccccc2)CC1`, for which the inhibition was inactive: 6.08%.

In the case of `O=C(OC1CN2CCC1CC2)C1c2ccccc2Oc2ccccc21` (centres undefined), the inhibition was inactive: 0.77%.

For the compound `CCOc1ccc(C)cc1CN(CCCl)CCCl`, the inhibition is inactive: -0.21%.

Turning to `COc1ccc(NC2CCN(CCc3ccccc3)CC2)c(OC)c1`, the inhibition is inactive: 5.03%.

For the compound `Cc1ccc(OCC(C)C)c(CN(CCCl)CCCl)c1`, the inhibition is inactive: 0.49%.

On to `Fc1ccccc1NC1CCN(Cc2ccccc2)CC1`, for which the inhibition was inactive: 3.06%.

For the compound `CCN1CCC(Nc2cccc(F)c2)CC1`, the inhibition is inactive: -0.68%.

For the compound `CN(C)c1ccc(C(=O)NCC2(N3CCCCC3)CCCCC2)cc1`, the inhibition is inactive: 6.83%.

As for `CCOc1ncccc1C(=O)NCC1(N2CCOCC2)CCCCC1`, the inhibition was inactive: 5.93%.

Consider `CC(C)(C)OC(=O)N1CCC(Nc2ccccc2)CC1`, for which the inhibition was inactive: -0.03%.

Consider `CCC(CO)(C(=O)OC1CN2CCC1CC2)c1ccccc1` (centres undefined), for which the inhibition was inactive: 6.18%.

On to `COc1cc(OC)cc(C(=O)NCC2(N3CCOCC3)CCCCC2)c1`, for which the inhibition was inactive: 2.15%.

As to `CCCOc1ccc(C)cc1CN(CCCl)CCCl`, the inhibition was inactive: 4.5%.

As for `COc1ccc(C(=O)NCC2(N3CCOCC3)CCCCC2)cc1OC`, the inhibition was inactive: -0.25%.

With `N/C(=N\O)c1c(N)no[n+]1[O-]`, the inhibition is inactive: 1.29%.

On to `O=C(OC1CN2CCC1CC2)C1c2ccccc2C=Cc2ccccc21` (centres undefined), for which the inhibition was inactive: 7.7%.

For `N#Cc1ccc(C(=O)NCC2(N3CCCCC3)CCCCC2)cc1`, the inhibition is inactive: 3.89%.

Regarding `c1ccc(CN2CCC(Nc3ccccc3)CC2)cc1`, the inhibition is inactive: 1.38%.

For the origin of these results see PubChem BioAssay AID1445 (SRMLSC, 2008).
